Experimental data reported in publication PMC3116866.
Construct, isoform or probe ends are uncertain for at least one entry.

Protein sequences, listed by entry. Tags and fused reporters are not part of them. Lines headed by an entry give the natural chain unless they say otherwise; changes in a name come on top.
UniProt P9WGL9: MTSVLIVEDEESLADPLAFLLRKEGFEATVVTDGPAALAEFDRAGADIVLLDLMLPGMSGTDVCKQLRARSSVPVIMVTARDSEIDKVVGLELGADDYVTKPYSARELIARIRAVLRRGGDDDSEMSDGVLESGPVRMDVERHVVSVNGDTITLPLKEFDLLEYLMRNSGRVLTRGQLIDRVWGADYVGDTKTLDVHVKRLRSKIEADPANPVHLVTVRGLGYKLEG

Target: RegX3~P (phosphorylated by EnvZ) (Mycobacterium tuberculosis) (UniProt P9WGL9)
Assay: EMSA
Conditions: recombinant protein; residues 1-227; protein details: His tag (pET19b, Ni-NTA); label: FITC; probe letters rebuilt from the primers and the genome; part of a longer molecule

Row | Sequence | binding result
1 | GGTGATAGCCGAGCCCTCTCCGGCACCTGCCTGGATGAGCACCTCATGGCCACGACGGGTTAGTTCCGCGACGCCGGCCGGGGTGATGGCCACCCGGAATTCGTTGTTTTTGGTCTCGGTCGGAATACCGACGCGCATGATTACCCCTCTCGATACTGTACGCTTCAGTATGAAGAAAGTTCGATTAATCTGCAAGATTGCTGATGATAATTCTTTTTCGAGGCCATATGC (double strand) [Pald] | binds
2 | GACGGTGGTGATACCGAACTGCCACCGCGAAATGTCGACGACATTCATCTGTCATCTCCGGAGATACTACGGGGCCGACTGATTTGGCTACGACGAAGTGTAGTAGGCACGAGTGGGCCCGCGCTACTGGCAATCGTGGGTGCACCGCGATTCTGCGGTCAGCCGAGCGTCTGCGAAGCCTTGCGGATGGCGAACGACGACGCGATCTCGCATGTGCCGATCACCACGAGCCAGAT (double strand) [PcydAB (PcydB)] | binds
3 | ACGAGATCGGTAGCCCTCTAGTTCCTCGGTGGCGGCGCGCAACCGGCGGTGCACGGCAACCAGGCTGTGGCCGACCTCGGGCATCCGGGCGACGAATTCTTCGATCTGGGCGCCGCTGACCGCGTGCTCGACGCCGATGTCGGTGAAGACGTCGGACAGGTCGGCCACCAACCGTGCGTCGGAATCCGAGGAGAAATACTGCGCCGACAGGTCAAACCGCTCGGTAAGCAGAAGCAGCACGGGCACGGTGATGGGCCGCTGGTCATTCTCCAACTGGTTGACATAGCTTGTGGATAAGTCCAGGGCCTTGGCCAGCGCCACCTGGGTGAGCCCGCGCTCTTGACGTAACCGCCGCAGGCGGGCACCGGAAAACGTCCTCGAATACGTCCTAGCCACCGGTAAGACATTACTCCGCGTCATGTTCGCAAAATTTGCAAAATGTGCCGGATCAGGACACAAAAGTACGCTTTTTCAGGGTCTTTTGTTGGTGTCCTGTGCTGC (double strand) [PgltA1] | binds
